Test results taken from patent publication US6066628A, “Non-iron metalloporphyrins and methods of use” (Emory University, priority 1998, dated 2000).

Test system: Y. enterocolitica
Experiment: Minimal inhibitory concentration / sensitivity in broth
Type: cell-based
Settings: fur mutant H1852; Nutrient broth (Table 2)

**Q.** Gadolinium protoporphyrin IX was tested. Which “Minimal inhibitory concentration (MIC)” value did it give?
**A.** The value was 5 µg/mL.
